PubChem BioAssay AID504761, Drosophila RNAi Screening Center | 2011

- Assay: 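Fly genes whose silencing reduces dengue virus type 2 infection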 (primary screen)
- Cells: D.Mel-2 cells from Drosophila
- Reagent: long dsRNA against Drosophila genes
- Challenge: infection with dengue virus type 2; dose and infection time not stated
- Measurement: 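Cells stained for dengue envelope protein and imaged; percent of infected cells per well on duplicate plates, ranked by infection, with stained nuclei counted for cell number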
- Reading the numbers: infection score: higher = more virus-infected cells
- Active means: 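Very low infection ranking in both replicate wells (chance probability at most 0.065), then a retest showing infection dropped 1.5-fold or more at p below 0.05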
- Meaning of the calls: active = confirmed: knock-down lowers infection; inactive = not picked or not confirmed
In all, the deposit lists about 22,000 reagents; this is a random part of those with a known target gene and a result. In the full data, 116 (0.52%) got an active call. 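Calls depend on retest data that are not deposited; infection was ranked per plate without normalising between plates; the unit of the infection score is not given.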 Entries without a mark were called inactive. Names joined by + are all predicted targets of the reagent. Further read-outs or replicates are left out here. Not given: the amount of reagent, the time to read-out.

With knock-down of CG33474 (GeneID 2768725) [DRSC05218], the screen gave infection score, replicate 1 = 7.86. With knock-down of Pbgs (GeneID 39402) [DRSC09718], the record shows infection score, replicate 1 = 1.53. Against CG33281 (GeneID 2768938) [DRSC00421] the deposit lists infection score, replicate 1 = 15.8. CG14628 (GeneID 31057) [DRSC18626] showed infection score, replicate 1 = 2.97. mip130 (GeneID 31153) [DRSC18575] scored infection score, replicate 1 = 6.97. mip130 (GeneID 31153) [DRSC26990] showed infection score, replicate 1 = 9.5.

brm (GeneID 39744) [DRSC11330] showed infection score, replicate 1 = 0.14 (active). After knock-down of brm (GeneID 39744) [DRSC26226], the screen gave infection score, replicate 1 = 4.16. Against CG31086 + CG31323 [DRSC14902] the deposit lists infection score, replicate 1 = 2.91. For CG31086 + CG31323 [DRSC24466], the values are infection score, replicate 1 = 1.1. Against CG10132 (GeneID 35239) [DRSC02013], the values are infection score, replicate 1 = 16.4. With knock-down of CG10132 (GeneID 35239) [DRSC27890] the results were infection score, replicate 1 = 17.

CG13623 (GeneID 42926) [DRSC14625] scored infection score, replicate 1 = 1.6. Against CG32071 (GeneID 39246) [DRSC22298], the values are infection score, replicate 1 = 3.74. For CG32071 (GeneID 39246) [DRSC25705], the values are infection score, replicate 1 = 7.83. mgl (GeneID 8674055) [DRSC17800] scored infection score, replicate 1 = 1.77. Against mgl (GeneID 8674055) [DRSC17823] the deposit lists infection score, replicate 1 = 1.17. After knock-down of mgl (GeneID 8674055) [DRSC17859] the results were infection score, replicate 1 = 4.41.

After knock-down of mgl (GeneID 8674055) [DRSC23464], the record shows infection score, replicate 1 = 3.26. Cap-D3 + tomb [DRSC02347] scored infection score, replicate 1 = 1.25. With knock-down of CG9150 (GeneID 33856) [DRSC03148], the screen gave infection score, replicate 1 = 1.78. For CG9150 (GeneID 33856) [DRSC25676] the deposit lists infection score, replicate 1 = 4.41.

Reprinted from the listing for reference:
CG32071 (GeneID 39246) [DRSC25705] → infection score, replicate 1 = 7.83
mgl (GeneID 8674055) [DRSC17800] → infection score, replicate 1 = 1.77
